Columns and labels:
[1] = test system: mutant HIV-1 with M46I/I47V/I50V mutations in the protease gene (I50V #1); assay: Resistance evaluation, I50V #1 fold change; settings: I50V (#1) mutant
[2] = test system: mutant HIV-1 with I84V/L90M mutations in the protease gene; assay: Resistance evaluation, I84V/L90M fold change; format: cell-based

SMILES | I50V (#1) fold change [1] | I84V/L90M fold change [2]
Cc1c(O)cccc1C(=O)N[C@@H](Cc1ccc(OCP(=O)(OCc2ccccc2)OCc2ccccc2)cc1)[C@H](O)CN(CC(C)C)S(=O)(=O)c1ccc(N)cc1 | + (>3 to ≦10) | –
CCCCOC(=O)[C@H](C)NP(=O)(COc1ccc(S(=O)(=O)N(CC(C)C)C[C@@H](O)[C@H](Cc2ccccc2)NC(=O)O[C@H]2CO[C@H]3OCC[C@H]32)cc1)N[C@@H](C)C(=O)OCCCC | + (>3 to ≦10) | + (>3 to ≦10)
